Tests used:
Mtb = format: cell-based, Mycobacterium tuberculosis; settings: for Hillslope: in vitro Mtb dose-response curve
[1] = system: Mtb CDC1551 FFluc reporter strain in primary bone marrow-derived macrophages; format: cell-based, Mycobacterium tuberculosis

Structure (SMILES)	Hillslope (Mtb)	enhanced intra-macrophage activity compared to in vitro activity [1] [fold]	fold lower in potency than NITD-304 and NITD-349 (Mtb; in vitro Mtb EC50 compared with NITD-304 and NITD-349)	fold higher in potency than SQ109 (Mtb; in vitro Mtb EC50 compared with SQ109)
CC(C)N(C(=O)CSc1nc2ccc(Cl)cc2[nH]1)C(C)C [HC2099]	2.6			
CC(C)N(C(=O)CNc1nc2cc(Cl)c(Cl)cc2[nH]1)C(C)C [MSU-43165]	4.4			
CC(C)N(C(=O)COc1nc2cc(Cl)c(Cl)cc2[nH]1)C(C)C [MSU-43170]	2.7	3.3	3- to 5 fold	~ 10 fold

Reference: publication PMC10783087 (Microbiology Spectrum, 2023)
